HIV-1 5' UTR: effect of mutations on RNA dimer formation

From the data files of Ye et al. 2022, doi:10.1038/s41594-022-00746-2.

Sequence of the HIV-1 NL4-3 5' RNA, positions 1 to 437, as numbered in the source:
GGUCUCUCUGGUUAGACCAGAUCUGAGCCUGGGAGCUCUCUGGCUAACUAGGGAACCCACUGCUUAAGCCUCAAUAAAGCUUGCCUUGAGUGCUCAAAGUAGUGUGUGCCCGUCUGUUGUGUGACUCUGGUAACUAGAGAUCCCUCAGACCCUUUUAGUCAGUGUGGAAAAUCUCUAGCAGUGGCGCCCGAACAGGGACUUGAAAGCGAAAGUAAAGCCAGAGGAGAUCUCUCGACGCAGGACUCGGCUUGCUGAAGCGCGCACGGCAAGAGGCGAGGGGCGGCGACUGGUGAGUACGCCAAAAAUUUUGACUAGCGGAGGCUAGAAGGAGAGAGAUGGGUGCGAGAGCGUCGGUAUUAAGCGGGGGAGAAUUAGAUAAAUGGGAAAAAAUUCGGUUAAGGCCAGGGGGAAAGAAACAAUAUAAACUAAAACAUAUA

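Mutant RNA libraries with 1G, 2G or 3G starts, with or without cap, were folded at 37 °C for 30 min. Monomer and dimer bands were cut from native gels after folding in high salt (300 mM KCl, 5 mM MgCl2) or low salt (40 mM KCl, 0.1 mM MgCl2). Kdimer compares mutation frequencies in monomer and dimer, corrected for sequencing errors.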

Scale: median log2 Kdimer over the changes at a position; positive = changes inhibit dimerization, negative = changes enhance it.
One numbering serves 1G, 2G and 3G.
A position is written with its base.

G280 read 3G uncapped high-salt -0.29; 3G capped high-salt -0.61.
C281 read 3G uncapped high-salt 0.58; 3G capped high-salt 0.45.
G282 read 3G uncapped high-salt 0.59; 3G capped high-salt 0.40.
G283 (domain SL2) read 3G uncapped high-salt 0.00; 3G capped high-salt -0.22.
C284 (domain SL2) read 3G uncapped high-salt 0.10; 3G capped high-salt -0.09.
G285 (domain SL2) read 3G uncapped high-salt 1.17; 3G capped high-salt 0.83.
A286 (domain SL2) read 3G uncapped high-salt 0.51; 3G capped high-salt 0.42.
C287 (domain SL2) read 3G uncapped high-salt -0.19; 3G capped high-salt -0.52.
U288 (domain SL2) read 3G uncapped high-salt -0.15; 3G capped high-salt -0.44.
G289 (domain SL2) read 3G uncapped high-salt 0.33; 3G capped high-salt 0.58.
G290 (domain SL2) read 3G uncapped high-salt 0.38; 3G capped high-salt 0.27.
U291 (domain SL2) read 3G uncapped high-salt 0.14; 3G capped high-salt -0.31.
G292 (domain SL2) read 3G uncapped high-salt -0.19; 3G capped high-salt -0.16.
A293 (domain SL2) read 3G uncapped high-salt 0.07; 3G capped high-salt -0.21.
G294 (domain SL2) read 3G uncapped high-salt -0.34; 3G capped high-salt -0.58.
U295 (domain SL2) read 3G uncapped high-salt -0.20; 3G capped high-salt -0.19.
A296 (domain SL2) read 3G uncapped high-salt 0.58; 3G capped high-salt 0.71.
C297 (domain SL2) read 3G uncapped high-salt 0.08; 3G capped high-salt -0.21.
G298 (domain SL2) read 3G uncapped high-salt -0.39; 3G capped high-salt -0.57.
C299 (domain SL2) read 3G uncapped high-salt 0.01; 3G capped high-salt -0.26.
C300 read 3G uncapped high-salt -0.23; 3G capped high-salt -0.41.
A301 read 3G uncapped high-salt 0.55; 3G capped high-salt 0.53.
A302 read 3G uncapped high-salt 0.14; 3G capped high-salt 0.00.
A303 read 3G uncapped high-salt 0.03; 3G capped high-salt -0.01.
A304 read 3G uncapped high-salt 0.11; 3G capped high-salt -0.12.
A305 read 3G uncapped high-salt -0.08; 3G capped high-salt -0.09.
U306 read 3G uncapped high-salt 0.01; 3G capped high-salt -0.04.
U307 read 3G uncapped high-salt 0.07; 3G capped high-salt 0.09.
U308 read 3G uncapped high-salt -0.02; 3G capped high-salt 0.19.
U309 read 3G uncapped high-salt 0.18; 3G capped high-salt 0.11.

The opening 4 entries, copied out:

| position | domain | 3G uncapped high-salt | 3G capped high-salt |
|---|---|---|---|
| G280 | none | -0.29 | -0.61 |
| C281 | none | 0.58 | 0.45 |
| G282 | none | 0.59 | 0.40 |
| G283 | SL2 | 0.00 | -0.22 |